Measured values reported in PubChem BioAssay AID1662 (Broad Institute, 2009).
The list shows a part of the results, in another mix than the full data. Calls of active or inactive are those of the source.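 How the source made its calls: active means mean replicate score, as percent of positive control median, at least 50; inconclusive means mean below 50 but one replicate at or above 50; inactive means mean and every replicate below 50.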

Assay: kanamycin survival loss of SKKanGAS strain – BacTiter-Glo luminescence, streptokinase expression inhibitor project, primary screen (AID 1662);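 further: strain carries kanamycin resistance gene driven by streptokinase promoter and grows in 40 µg/ml kanamycin; loss of luminescence reflects streptokinase promoter inhibition or plain growth inhibition; 0% = median of DMSO wells and 100% = positive control at its reference dose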
Details: S. pyogenes SKKanGAS, kanamycin growth, 6 h, at 7.5 µM, stronger effect = higher value

Row | SMILES | inhibition
1 | COc1ccc(C(=O)NCC2(N3CCOCC3)CCCCC2)cc1OC | inactive: 4.2%
2 | CCOC(=O)N1CCC(Nc2ccc(C)cc2)CC1 | inactive: 3.15%
3 | N/C(=N\O)c1c(N)no[n+]1[O-] | inactive: 2.45%
4 | O=C(OC1CN2CCC1CC2)C1c2ccccc2C=Cc2ccccc21 (centres undefined) | inactive: 0.331%
5 | CCc1cc(C(=O)NCC2(N3CCCCC3)CCCCC2)sc1C | inactive: -26.6%
6 | N#Cc1ccc(C(=O)NCC2(N3CCCCC3)CCCCC2)cc1 | inactive: 3.48%
7 | CC(C)(C)OC(=O)N1CCC(N(C(=O)c2ccccc2)c2ccc(Cl)cc2)CC1 | inactive: 7.38%
8 | CN(C)C1(CNC(=O)c2cccc(C#N)c2)CCCCC1 | inactive: 4.62%
9 | CCCN1CCC(Nc2cc(OC)cc(OC)c2)CC1 | inactive: -1%
10 | c1ccc(CN2CCC(Nc3ccccc3)CC2)cc1 | inactive: -4.27%
11 | COc1cc(OC)cc(C(=O)NCC2(N3CCCCC3)CCCCC2)c1 | inactive: -2.16%
12 | Fc1ccccc1NC1CCN(Cc2ccccc2)CC1 | inactive: 2.16%
13 | Cc1ccc(C(=O)NCC2(N3CCCCC3)CCCCC2)o1 | inactive: 0.973%
14 | CCN1CCC(Nc2cccc(F)c2)CC1 | inactive: -4.72%
15 | CN(C)c1ccc(C(=O)NCC2(N3CCCCC3)CCCCC2)cc1 | inactive: 4.32%
16 | CN1CCC(Nc2ccc(F)c(Cl)c2)CC1 | inactive: 5.76%
17 | CCOc1ncccc1C(=O)NCC1(N2CCOCC2)CCCCC1 | inactive: -26%
18 | O=C(O)C1(Nc2ccccc2)CCN(Cc2ccccc2)CC1 | inactive: 1.9%
19 | CC(C)(C)OC(=O)N1CCC(Nc2ccccc2)CC1 | inactive: 5.87%
20 | CCCOc1ccc(C(=O)NCC2(N(C)C)CCCCC2)cc1 | inactive: 2.98%

Row | SMILES | inhibition
21 | COc1cccc(C(=O)N(c2cc(C)cc(C)c2)C2CCN(C(=O)OC(C)(C)C)CC2)c1 | inactive: 1.89%
22 | COc1cc(OC)cc(C(=O)NCC2(N3CCOCC3)CCCCC2)c1 | inactive: -13.6%
23 | CCC(CO)(C(=O)OC1CN2CCC1CC2)c1ccccc1 (centres undefined) | inactive: -8.26%
24 | CN1CCC(Nc2ccc(Cl)cc2)CC1 | inactive: 3.75%
25 | CCCOc1ccc(C)cc1CN(CCCl)CCCl | inactive: 7.27%
26 | CC(C)(C)OC(=O)N1CCC(N(C(=O)c2ccccc2)c2ccc(F)cc2)CC1 | inactive: 0.62%
27 | COc1ccc(C(=O)NCC2(N3CCCCC3)CCCCC2)c(OC)c1OC | inactive: 12.5%
28 | COc1ccc(C(=O)NCC2(N3CCCCC3)CCCCC2)cc1 | inactive: -5.06%
29 | O=C(NCC1(N2CCCCC2)CCCCC1)c1cccs1 | inactive: -2.21%
30 | O=C(NCC1(N2CCCCC2)CCCCC1)c1ccc(=O)[nH]c1 | inactive: -5.05%
31 | CSc1ccccc1C(=O)NCC1(N2CCCCC2)CCCCC1 | inactive: -1.32%
32 | Cc1cc(C)cc(N(C(=O)c2ccccc2)C2CCN(C(=O)OC(C)(C)C)CC2)c1 | inactive: 12.9%
33 | O=C(NCC1(N2CCCCC2)CCCCC1)c1ccc(Cl)nc1 | inactive: -6.07%
34 | O=C(NCC1(N2CCOCC2)CCCCC1)c1cc2ccccc2o1 | inactive: 1.88%
35 | O=C(OC1CN2CCC1CC2)C1c2ccccc2Oc2ccccc21 (centres undefined) | active: 60.9%
36 | N#CC1(Nc2ccccc2)CCN(Cc2ccccc2)CC1 | inactive: 3.3%
37 | CCOC(=O)N1CCC(Nc2ccc(OC)cc2)CC1 | inactive: -7.01%
38 | CCOc1ccc(C)cc1CN(CCCl)CCCl | inactive: 9.33%
39 | CCOC(=O)N1CCC(Nc2ccc(F)cc2)CC1 | inactive: -1.35%
40 | COc1ccc(NC2CCN(CCc3ccccc3)CC2)c(OC)c1 | inactive: -1.69%

Row | SMILES | inhibition
41 | O=C(NCC1(N2CCCCC2)CCCCC1)c1ccc(F)cc1 | inactive: 0.747%
42 | Cc1ccc(OCC(C)C)c(CN(CCCl)CCCl)c1 | inactive: 1.98%
43 | COc1cc(C(=O)NCC2(N(C)C)CCCCC2)ccc1OC(F)F | inactive: -3.37%
44 | CCOC(=O)N1CCC(Nc2cccc(C)c2)CC1 | inactive: 4.17%
45 | O=C(NCC1(N2CCCCC2)CCCCC1)c1ccc(OC(F)F)cc1 | inactive: 5%
46 | N#CC1(Nc2ccccc2)CCN(CCc2ccccc2)CC1 | inactive: 0.767%
47 | CCN1CCC(Nc2ccc(Cl)cc2)CC1 | inactive: 1.46%
48 | O=C(NCC1(N2CCCCC2)CCCCC1)c1cccc([N+](=O)[O-])c1 | inactive: -0.805%
49 | O=C(NCC1(N2CCCCC2)CCCCC1)c1cccc(C(F)(F)F)c1 | inactive: 4.16%
50 | O=C(NCC1(N2CCOCC2)CCCCC1)c1cc(=O)[nH]c2ccccc12 | inactive: -8.8%
51 | COc1cc(C(=O)NCC2(N3CCCCC3)CCCCC2)ccc1OC(F)F | inactive: -6.75%
52 | COc1ccc(NC2CCN(C(=O)OC(C)(C)C)CC2)cc1 | inactive: 1.08%
53 | CN1CCN(CCOC(=O)C(O)(c2ccccc2)c2ccccc2)CC1 | inactive: -19.3%
54 | CC(C)c1ccc(NC2CCN(C(=O)OC(C)(C)C)CC2)cc1 | inactive: 3.24%
55 | CN(C)c1cccc(C(=O)NCC2(N3CCCCC3)CCCCC2)c1 | inactive: -2.77%
56 | COc1ccc(CN(CCCl)CCCl)cc1Cl | inactive: 0.691%
57 | COc1cc(OC)c(C(=O)NCC2(N(C)C)CCCCC2)cc1OC | inactive: -3.58%
58 | CN1CCC(Nc2cccc(F)c2)CC1 | inactive: -18.8%
59 | CCCOc1ccc(C(=O)NCC2(N(C)C)CCCCC2)cc1OC | inactive: 6.79%
